Compound potency records, mixed from different reports. Data source: NIAID ChemDB in PubChem.

All rows: cytotoxicity tests; cells: MT-4; read-out: CC50

An empty or dashed field is not shown. CCn is the concentration with n% toxicity to the cells. Conditions beyond the fields shown may differ between rows.

compound | read by | value
O=C1NCc2c1cccc2-c1cc(-c2cccc(F)c2F)n(-c2ccc(F)c(Cl)c2)n1 | resazurin | >3.3 µM
CCc1c(C(=O)c2cc(C)cc(C)c2)n(Cc2cc(F)ccc2F)c(=O)[nH]c1=O | MTT | >100 µg/mL
CSc1nc2ccccc2c(=O)n1/N=C1\C(=O)N(CN2CCOCC2)c2ccccc21 | MTT | 16.8 µM
N#C/C(=C\c1ccc(F)cc1)n1nc2ccccc2n1 |  | >100 µM
CCc1c(Cc2cc(C)cc(C)c2)n(COCC#Cc2ccccc2)c(=O)[nH]c1=O | MTT | 30 µM
O=S(=O)(O)O.OCC1OC(OC2C(O)C(CO)OC(OC3C(O)C(CO)OC(OC4C(O)C(CO)OC(OC5C(O)C(O)OC(CO)C5O)C4O)C3O)C2O)C(O)C(O)C1O |  | 247 µg/mL
CCc1c(Sc2cc(C)cc(C)c2)n(Cc2ccccc2C#N)c(=O)[nH]c1=O | MTT | >100 µg/mL
Cc1c(C(C)c2cccc3ccccc23)n(COCc2ccccc2)c(=O)[nH]c1=O | MTT | >294 µM
O=S(=O)(O)O.OCC1OC(OC2C(O)C(CO)OC(OC3C(O)C(CO)OC(OC4C(O)C(O)OC(CO)C4O)C3O)C2O)C(O)C(O)C1O |  | 198 µg/mL
N#Cc1cccc(-c2cc(-c3nccc4c3CNC4=O)nn2-c2ccc(F)cc2)c1 | resazurin | >3.3 µM
N#C/C(=C\c1ccc(C(F)(F)F)cc1C(F)(F)F)n1nnc2ccccc21 |  | 11 µM
C=C(c1ccc(C)cc1)c1c(C)c(=O)[nH]c(=O)n1COCc1ccccc1 | MTT | 81.53 µM
Cc1cc(C)cc(S(=O)(=O)c2c(C(=O)N[C@H]3CCN(S(C)(=O)=O)C3)[nH]c3ccc(Cl)cc23)c1 | MTT | 29.92 µM
Cc1ccc(/C=C(\C(N)=O)n2nc3ccccc3n2)cc1 |  | 7 µM
Cc1c(C(C)c2cccc(F)c2)n(COCc2ccccc2)c(=O)[nH]c1=O | MTT | >339.3 µM
Cc1cc(C)cc(C(=O)c2c(C(C)C)c(=O)[nH]c(=O)n2Cc2cc(C(F)(F)F)cc(C(F)(F)F)c2)c1 | MTT | 8.4 µg/mL
CCOC(=O)c1ccc(OCc2nc3ccccc3n3cccc23)cc1 | MTT | >100 µM
CC1=C[C@H](Cn2cnc3c(=O)[nH]cnc32)C[C@@H]1CO | MTT | >100 µg/mL
CCc1c(Cc2cc(C)cc(C)c2)n(COCC#Cc2ccc(CO[Si](c3ccccc3)(c3ccccc3)C(C)(C)C)cc2)c(=O)[nH]c1=O | MTT | >100 µM
[N-]=[N+]=Nc1ccccc1CCNC(=S)Nc1nccs1 |  | 92 µM
Cc1cc(C)cc(S(=O)(=O)c2c(C(=O)N[C@@H]3CCN(Cc4ccccc4F)C3)[nH]c3ccc(Cl)cc23)c1 | MTT | >232 µM
O=C1NCc2c1cccc2-c1cc(-c2cc(F)cc(Cl)c2)n(-c2ccc(F)c(Cl)c2)n1 | resazurin | >3.3 µM
CCc1c(C(=O)c2cc(C)cc(C)c2)n(Cc2cc(C(F)(F)F)cc(C(F)(F)F)c2)c(=O)[nH]c1=O | MTT | >100 µg/mL
CC(C)c1csc(NC(=S)NCCc2ccccc2)n1 |  | >330 µM
COc1cc(OCc2nc3cc(C(F)(F)F)ccc3n3cccc23)cc(OC)c1OC | MTT | 100 µM
N#C/C(=C/c1cccc2ccccc12)n1nnc2ccccc21 |  | 5 µM
CC(C)c1c(C(=O)c2cc(C(F)(F)F)cc(C(F)(F)F)c2)n(Cc2ccncc2)c(=O)[nH]c1=O | MTT | 44.9 µg/mL
C=C(C)[C@@H]1CC[C@]2(C(=O)N[C@H](CC(C)C)C(=O)O)CC[C@]3(C)[C@H](CC[C@@H]4[C@@]5(C)CC[C@H](OC(=O)C(C)(C)CC(=O)O)C(C)(C)[C@@H]5CC[C@]43C)[C@@H]12 |  | 9 µM
CCc1c(Cc2cc(C)cc(C)c2)n(COCC#Cc2ccc(NC(=O)CBr)cc2)c(=O)[nH]c1=O | MTT | 39 µM
Cc1cc(F)cc(-c2cc(-c3cccc4c3CNC4=O)nn2-c2ccc(F)c(Cl)c2)c1 | resazurin | >3.3 µM
CSc1nc2ccccc2c(=O)n1/N=C1\C(=O)N(CN2CCCCC2)c2ccc(Br)cc21 | MTT | 10.2 µM
Cc1cc(C)cc(C(=O)c2c(C(C)C)c(=O)[nH]c(=O)n2Cc2ccccc2)c1 | MTT | 8.01 µg/mL
CSc1nc2ccccc2c(=O)n1/N=C1\C(=O)Nc2ccccc21 | MTT | 56.7 µM
O=C(O)CCC(NC(=O)c1ccc(Nc2nc3ccccc3n3cccc23)cc1)C(=O)O | MTT | >100 µM
CSc1nc2ccccc2c(=O)n1/N=C1\C(=O)Nc2ccc(Cl)cc21 | MTT | 40.3 µM
COc1cccc(F)c1CCNC(=S)Nc1nccs1 |  | 51 µM
CCc1c(Cc2cc(C)cc(C)c2)n(COCC#Cc2cccc(C#N)c2)c(=O)[nH]c1=O | MTT | 39 µM
C=C(C)[C@@H]1CC[C@]2(C(=O)NCCCCCCCC(=O)N[C@@H](CC(C)C)[C@H](O)CC(=O)O)CC[C@]3(C)[C@H](CC[C@@H]4[C@@]5(C)CC[C@H](O)C(C)(C)[C@@H]5CC[C@]43C)[C@@H]12 |  | >10 µM
Cc1cc(C)cc(C(=O)c2c(C(C)C)c(=O)[nH]c(=O)n2Cc2ccnc(C#N)c2)c1 | MTT | 9.15 µg/mL
CC1=C[C@H](Cn2cnc3c(NC4CC4)nc(N)nc32)C[C@@H]1CO | MTT | >100 µg/mL
CCOC(=O)CCC(NC(=O)c1ccc(Nc2nc3ccccc3n3cccc23)cc1)C(=O)OCC | MTT | 48 µM
N#C/C(=C/c1ccccc1[N+](=O)[O-])n1nnc2ccccc21 |  | 31 µM
CCc1c(Cc2cc(C)cc(C)c2)n(COCC#Cc2cccc(C=O)c2)c(=O)[nH]c1=O | MTT | 42 µM
Cc1cc(C)cc(S(=O)(=O)c2c(C(=O)NC3CCNC3)[nH]c3ccc(Cl)cc23)c1 | MTT | 37.31 µM
S=C(NCCc1ccccc1)Nc1ncc(Cl)s1 |  | 15 µM
COc1cc(OC(F)(F)F)cc(-c2cc(-c3nccc4c3CNC4=O)nn2-c2ccc(F)c(Cl)c2)c1 | resazurin | >3.3 µM
Cc1cc(C)cc(Oc2c(C(C)C)c(=O)[nH]c(=O)n2Cn2nnc3ccccc32)c1 | MTT | >100 µg/mL
O=C1NCc2c1cccc2-c1cc(-c2cc(Cl)cc(OC(F)(F)F)c2)n(-c2cccnc2)n1 | resazurin | >3.3 µM
CC(=O)Cn1c(Oc2cc(C)cc(C)c2)c(C(C)C)c(=O)[nH]c1=O | MTT | >100 µg/mL
CSc1nc2ccccc2c(=O)n1/N=C1\C(=O)Nc2ccc(Br)cc21 | MTT | 7.8 µM
CCOC(=O)c1ccc(Nc2nc3ccccc3n3cccc23)cc1 | MTT | 100 µM
N#C/C(=C/c1ccccc1I)n1nnc2ccccc21 |  | 25 µM
CCc1c(C(=O)c2ccccc2)n(Cc2ccncc2)c(=O)[nH]c1=O | MTT | >100 µg/mL
C=C(C)[C@@H]1CC[C@]2(C(=O)O)CC[C@]3(C)[C@H](CC[C@@H]4[C@@]5(C)CC[C@H](OC(=O)C(C)(C)CC(=O)O)C(C)(C)[C@@H]5CC[C@]43C)[C@@H]12 |  | 8 µM
CCCS(=O)(=O)NC(=O)c1[nH]c2ccc(Cl)cc2c1S(=O)(=O)c1cc(C)cc(C)c1 | MTT | 141 µM
CCc1c(Sc2cc(C)cc(C)c2)n(Cc2nc3ccccc3o2)c(=O)[nH]c1=O | MTT | >100 µg/mL
O=C1NCc2c1ccnc2-c1cc(-c2cc(Br)cc(OC(F)F)c2)n(-c2ccnc(Cl)c2)n1 | resazurin | >3.3 µM
COc1cccc(/C=C(\C#N)n2nnc3ccccc32)c1 |  | 4.7 µM
CSc1nc2ccccc2c(=O)n1/N=C1\C(=O)N(CN2CCOCC2)c2ccc(Cl)cc21 | MTT | 13.9 µM
Cc1cc(C)cc(C(=O)c2c(C(C)C)c(=O)[nH]c(=O)n2Cc2ccnc(C)c2)c1 | MTT | >100 µg/mL
Cc1cc(C)cc(S(=O)(=O)c2c(C(=O)NC3CN(Cc4n[nH]c(=O)n4C)C3)[nH]c3ccc(Cl)cc23)c1 | MTT | 25.18 µM
CC(C)c1c(C(=O)c2cc(C(F)(F)F)cc(C(F)(F)F)c2)n(Cc2ccccn2)c(=O)[nH]c1=O | MTT | 11.7 µg/mL
C=C(C)[C@@H]1CC[C@]2(C(=O)On3nnc4ccccc43)CC[C@]3(C)[C@H](CC[C@@H]4[C@@]5(C)CC[C@H](OC(=O)C(C)(C)CC(=O)O)C(C)(C)[C@@H]5CC[C@]43C)[C@@H]12 |  | 2.5 µM
CCc1c(C(=O)c2cc(C)cc(C)c2)n(Cc2ccccc2)c(=O)[nH]c1=O | MTT | 5.78 µg/mL
N#C/C(=C/c1cccc(Cl)c1)n1nnc2ccccc21 |  | 3 µM
Cc1cccc(C(C)c2c(C(C)C)c(=O)[nH]c(=O)n2COCc2ccccc2)c1 | MTT | 34.3 µM

A second listing of 8 rows from above:

compound,read by,value
Cc1cc(C)cc(C(=O)c2c(C(C)C)c(=O)[nH]c(=O)n2Cc2cc(C(F)(F)F)cc(C(F)(F)F)c2)c1,MTT,8.4 µg/mL
CCc1c(Cc2cc(C)cc(C)c2)n(COCC#Cc2ccccc2)c(=O)[nH]c1=O,MTT,30 µM
[N-]=[N+]=Nc1ccccc1CCNC(=S)Nc1nccs1,,92 µM
CCc1c(Sc2cc(C)cc(C)c2)n(Cc2ccccc2C#N)c(=O)[nH]c1=O,MTT,>100 µg/mL
CSc1nc2ccccc2c(=O)n1/N=C1\C(=O)Nc2ccc(Br)cc21,MTT,7.8 µM
O=C1NCc2c1cccc2-c1cc(-c2cc(Cl)cc(OC(F)(F)F)c2)n(-c2cccnc2)n1,resazurin,>3.3 µM
N#C/C(=C\c1ccc(C(F)(F)F)cc1C(F)(F)F)n1nnc2ccccc21,,11 µM
N#C/C(=C\c1ccc(F)cc1)n1nc2ccccc2n1,,>100 µM